PubChem BioAssay AID624099 | ICCB-Longwood – 2012
Here is a random part of about 21,000 deposited reagents. Over the whole deposit, 497 (2.4%) were called active. 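Higher z means weaker E2 silencing; only reporter increases were scored, and knock-downs that hurt cell survival may mask genuine repressor factors.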 The numbers tell different reagents against one gene apart.

- Purpose: 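Knock-downs relieving repression by E2 of an HPV18 LCR luciferase reporter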 (primary screen)
- System: human C33A cervical carcinoma cells (HPV-negative) stably expressing BPV1 E2 and an HPV18 LCR luciferase reporter
- Reagent: siRNA pool against human genes, 40 nM
- Timing: 72 h
- Detection: 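HPV18 LCR reporter light per well, converted to plate-wise z-scores that exclude control wells, and averaged over triplicate plates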
- Reading the numbers: mean z-score and z-score: higher = stronger reporter signal, weaker E2 silencing
- Call rule: 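Mean z ≥ 2 together with z ≥ 2 in two or more of the three replicates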

| gene | reagent no. | mean z-score | z-score, replicate A | z-score, replicate B | z-score, replicate C | call |
| --- | --- | --- | --- | --- | --- | --- |
| OTUD3 | 1 | 0.08 | 0.03 | -0.07 | 0.28 | inactive |
| OTUD3 | 2 | -1.02 | -1.13 | -1.06 | -0.89 | inactive |
| ACSL6 | 1 | -0.6 | -1.05 | -0.47 | -0.29 | inactive |
| LOC401937 (retired record) | 1 | -0.25 | -0.48 | -0.04 | -0.23 | inactive |
| DNAJC9 | 1 | 0.65 | 0.71 | 0.8 | 0.44 | inactive |
| RMI1 | 1 | 0.69 | 0.48 | 0.82 | 0.77 | inactive |
| LINC01734 | 1 | -0.45 | -0.68 | -0.45 | -0.21 | inactive |
| RNF10 | 1 | -0.3 | -0.41 | -0.29 | -0.2 | inactive |
| FAM89A | 1 | 0.88 | 0.76 | 0.81 | 1.08 | inactive |
| PTTG2 | 1 | 1.26 | 1.06 | 1.3 | 1.42 | inactive |
| HCN4 | 1 | -1.18 | -1.08 | -1.19 | -1.27 | inactive |
| SPMIP5 | 1 | -0.16 | -0.82 | 0.11 | 0.22 | inactive |
| POMC | 1 | -0.38 | -0.43 | -0.47 | -0.24 | inactive |
| ZNF595 | 1 | 0.16 | 0.08 | 0.26 | 0.13 | inactive |
| TMA16 | 1 | 2.67 | 2.55 | 2.83 | 2.65 | active |
| SLC30A7 | 1 | -0.84 | -1.38 | -0.57 | -0.58 | inactive |
| PLG | 1 | 1.19 | 1.14 | 1.25 | 1.17 | inactive |
| SYCE1 | 1 | -0.35 | -0.3 | -0.44 | -0.31 | inactive |
| GPR61 | 1 | -0.34 | -0.49 | -0.14 | -0.38 | inactive |
| INHBB | 1 | -1.44 | -1.34 | -1.47 | -1.52 | inactive |
| SGCE | 1 | -1 | -1.32 | -1.11 | -0.58 | inactive |
| TIMM10B | 1 | -0.19 | -0.26 | -0.29 | -0.02 | inactive |
| C1orf216 | 1 | 0.57 | 0.85 | 0.27 | 0.57 | inactive |
| HMGN1 | 1 | 1.17 | 1.35 | 1.13 | 1.03 | inactive |
| UBL7 | 1 | -0.26 | -0.14 | -0.21 | -0.44 | inactive |
| NPR1 | 1 | 0.79 | 1.06 | 0.75 | 0.58 | inactive |
| DEFB105A | 1 | 1.07 | 1.24 | 1 | 0.97 | inactive |
| ISY1 | 1 | 1.84 | 1.65 | 1.52 | 2.34 | inactive |
| PTH | 1 | -0.45 | -0.21 | -0.69 | -0.44 | inactive |
| ROPN1B | 1 | -0.46 | -0.83 | -0.32 | -0.22 | inactive |
| RTTN | 1 | 0.56 | 0.53 | 0.74 | 0.4 | inactive |
| KLRC4 | 1 | 0.2 | 0.37 | 0.23 | 0 | inactive |
| MTHFD1 | 1 | 0.38 | 0.42 | 0.29 | 0.45 | inactive |
| ZNF552 | 1 | 0.13 | 0.43 | 0.25 | -0.29 | inactive |
| SERINC2 | 1 | -0.82 | -0.98 | -0.8 | -0.68 | inactive |
| SGMS2 | 1 | 1.03 | 1.42 | 1 | 0.68 | inactive |
| CARS1 | 1 | -0.09 | -0.11 | -0.05 | -0.1 | inactive |
| NFATC4 | 1 | 0.53 | 0.52 | 0.58 | 0.48 | inactive |
| ANKRD36 | 1 | -0.04 | -0.36 | 0.22 | 0 | inactive |
| CFAP45 | 1 | -0.06 | -0.03 | 0.03 | -0.18 | inactive |
| MRPS15 | 1 | 0.9 | 0.67 | 1.06 | 0.98 | inactive |
| HSDL2 | 1 | 0.38 | 0.22 | 0.4 | 0.53 | inactive |
| LOC389153 (retired record) | 1 | 0.09 | -0.43 | 0.18 | 0.53 | inactive |
| CCL7 | 1 | -0.53 | -0.69 | -0.47 | -0.43 | inactive |
| TASL | 1 | 0.55 | 0.9 | 0.39 | 0.38 | inactive |
| LOC388504 (retired record) | 1 | -1.34 | -1.57 | -1.15 | -1.3 | inactive |
| PSMD1 | 1 | -1.95 | -1.87 | -2.05 | -1.93 | inactive |
| RXFP2 | 1 | -0.92 | -1.05 | -0.9 | -0.83 | inactive |
| ZNF93 | 1 | 0.52 | 0.93 | 0.21 | 0.41 | inactive |
| PRKD3 | 1 | -2.33 | -2.89 | -1.79 | -2.29 | inactive |
| GMEB2 | 1 | -0.05 | -0.09 | -0.13 | 0.08 | inactive |
| NSDHL | 1 | 0.45 | 0.26 | 0.29 | 0.79 | inactive |
| C3orf52 | 1 | -0.49 | -0.45 | -0.86 | -0.17 | inactive |
| GNAQ | 1 | -0.22 | 0.01 | -0.26 | -0.41 | inactive |
| KDR | 1 | -0.01 | 0.19 | -0.04 | -0.18 | inactive |
| LOC254938 (retired record) | 1 | 0.04 | -0.1 | -0.47 | 0.7 | inactive |
| ASZ1 | 1 | -0.67 | -0.73 | -0.58 | -0.7 | inactive |
| SNHG12 | 1 | 0.15 | 0.04 | -0.2 | 0.6 | inactive |
| MOCS2-DT | 1 | -0.47 | -0.6 | -0.37 | -0.43 | inactive |
| TIMP2 | 1 | 0.14 | 0.3 | -0.05 | 0.17 | inactive |
| MC3R | 1 | -0.89 | -0.79 | -0.73 | -1.14 | inactive |
| SUPT3H | 1 | -0.24 | -0.43 | -0.44 | 0.15 | inactive |
| CNPPD1 | 1 | -1.13 | -1.09 | -1.08 | -1.24 | inactive |
| SELENBP1 | 1 | 0.76 | 0.69 | 0.74 | 0.85 | inactive |
| SMCO2 | 1 | 0.55 | 0.62 | 0.48 | 0.54 | inactive |
| TUBG2 | 1 | -1.62 | -0.96 | -1.94 | -1.95 | inactive |
| PPP4R3A | 1 | -0.37 | -0.38 | -0.3 | -0.43 | inactive |
| ZNF85 | 1 | -0.86 | -0.95 | -0.86 | -0.77 | inactive |
| AGO1 | 1 | -1.38 | -1 | -1.52 | -1.63 | inactive |
| ATOH7 | 1 | -0.41 | -0.29 | -0.66 | -0.29 | inactive |
| KRT18P55 | 1 | 0.02 | 0.14 | 0.02 | -0.11 | inactive |
| GCC1 | 1 | -1.28 | -1.59 | -1.39 | -0.86 | inactive |
| EMC4 | 1 | -0.82 | -0.4 | -1.17 | -0.87 | inactive |

6 successive entries from above:
| gene | reagent no. | mean z-score | z-score, replicate A | z-score, replicate B | z-score, replicate C | call |
| --- | --- | --- | --- | --- | --- | --- |
| MTHFD1 | 1 | 0.38 | 0.42 | 0.29 | 0.45 | inactive |
| ZNF552 | 1 | 0.13 | 0.43 | 0.25 | -0.29 | inactive |
| SERINC2 | 1 | -0.82 | -0.98 | -0.8 | -0.68 | inactive |
| SGMS2 | 1 | 1.03 | 1.42 | 1 | 0.68 | inactive |
| CARS1 | 1 | -0.09 | -0.11 | -0.05 | -0.1 | inactive |
| NFATC4 | 1 | 0.53 | 0.52 | 0.58 | 0.48 | inactive |
